Reference: patent publication US20050203029A1, “Agents for treating <I>flaviviridae</I>infections” (priority 2002, published 2005)

System: BVDV (CP7, NADL)
Assay: Western blot of pelleted BVDV virions with anti-BVDV core antibodies
Type: cell-based, bovine viral diarrhea virus
Details: 24 or 48 hours of treatment

## 4-hydroxy-5-iodo-3-nitrophenylacetyl-L-leucinyl-L-leucinyl-L-leucine-vinylsulfone
  production of BVDV virions (pelleted virions): block the production of BVDV virions
